In publication PMC8609006, “Design of modular autoproteolytic gene switches responsive to anti-coronavirus drug candidates” (Nature Communications, 2021):

Target: T1, SARS-CoV PLpro (PLpro(S1)) (Severe acute respiratory syndrome-related coronavirus, UniProt P0C6X7)
T1 construct: gene rep
Format: cell-based

Cc1ccc(N)cc1C(=O)N[C@H](C)c1cccc2ccccc12 [GRL-0617]
fold activation of nanoLuc over non-induced (maximum): 120 fold
